{"source": "ChEMBL document CHEMBL4229395", "about": "“Photoactivated 2,3-distyrylindoles kill multi-drug resistant bacteria” (Bioorg Med Chem Lett, 2018)", "system": "Staphylococcus aureus", "experiment": "Disruption of cell membrane in methicillin-resistant Staphylococcus aureus ATCC BAA-44 in presence of light by propidium iodide staining-based assay", "note": "Active and inactive are the calls of the source. The rule behind the calls is not given here.", "data": [{"molecule": "O=[As]c1ccccc1", "note": "(stereo unspecified)", "values": [{"measurement": "Activity", "result": "Active"}]}]}
